In this experiment the test system is Mtb K204. Conditions: compound in combination with KAN.
On to `C=CCNC(=O)CNC1=NS(=O)(=O)C(c2ccc(C)c(C)c2)=C1C`, for which the “effect on KAN resistance of Mtb K204 (in words)” value is on record as “did not overcome resistance to KAN”. As for `CCCNC1=NS(=O)(=O)C(c2ccc(F)cc2)=C1C`, the entry is “did not overcome resistance to KAN”. Then `CCCNC1=NS(=O)(=O)C(c2ccc(C)c(C)c2)=C1C`, with “did not overcome resistance to KAN”; and `CCCNC1=NS(=O)(=O)C(c2ccc(C)cc2)=C1C`, with “did not overcome resistance to KAN”; and `CC1=C(c2ccc(F)cc2)S(=O)(=O)N=C1NCc1ccco1`, with “did not overcome resistance to KAN”.

For the origin of these results see US10253035B2 (priority 2016, dated 2019).
